Measured values from several laboratories, pooled; numbers as filed in NIAID ChemDB.

All rows: host cell toxicity; cell line: VERO; endpoint: CC50

CCn is the concentration with n% toxicity to the cells.

{"SMILES": "Cc1nc(-c2ccccc2)sc1-c1csc(-c2ccc(Br)cc2)n1", "method": "sulforhodamine", "value": ">80 µM"}
{"SMILES": "CC(=O)c1csc(NC(=O)C2C3CC4CC(C3)CC2C4)n1", "method": "luminescence", "value": "82 µM"}
{"SMILES": "O=C(NC[C@@H]1OC(=O)N2c3cc(F)c(C4=CCN(C(=O)CO)CC4)cc3OC[C@@H]12)C1CCC1", "method": "resazurin", "value": ">64 µg/mL"}
{"SMILES": "Nc1nc(N)nc(-c2ccc(OCc3ccccc3)cc2)n1", "method": "MTT", "value": "464 µM"}
{"SMILES": "CC[C@@H](C(C)C)[C@H](O)[C@@H](O)[C@@H](C)[C@H]1CC[C@H]2[C@@H]3CC(=O)[C@@]4(O)C[C@H](O)[C@H](O)C[C@]4(C)[C@H]3CC[C@]12C", "method": "MTT", "value": "364 µM"}
{"SMILES": "O=C(Nc1ccn(-c2ccccn2)n1)NC1CCCC1", "method": "luminescence", "value": ">100 µM"}
{"SMILES": "O=C1C(c2c(O)ccc3nocc23)=Nc2ccccc21", "method": "MTS", "value": ">8 µg/mL"}
{"SMILES": "O=C(C(O)CO)N1CC=C(c2c(F)cc(N3CC(COc4ccon4)OC3=O)cc2F)CC1", "method": "resazurin", "value": ">64 µg/mL"}
{"SMILES": "CC[C@H](/C=C/[C@@H](C)[C@H]1CC[C@H]2[C@@H]3CC=C4C[C@@H](O)CC[C@]4(C)[C@H]3CC[C@]12C)C(C)C", "method": "MTT", "value": "479 µM"}
{"SMILES": "O=c1cc[nH]c(=S)[nH]1", "method": "neutral red", "value": ">100 µg/mL"}
{"SMILES": "COc1cccc(COc2ccc(-c3nc(N)nc(N)n3)cc2)c1", "method": "MTT", "value": "504.1 µM"}
{"SMILES": "NC1=NNC2(C(=O)N1)c1ccccc1-c1ccccc12", "value": ">10 µg/mL"}
{"SMILES": "Cc1nc(-c2ccc(F)cc2)sc1-c1csc(-c2ccc(F)c(Cl)c2)n1", "method": "sulforhodamine", "value": ">80 µM"}
{"SMILES": "Cc1cc(C)c2cc(C(=O)NC3CCCCCCC3)[nH]c2c1", "method": "resazurin", "value": "54 µM"}
{"SMILES": "COc1ccc(-c2nc(N)nc(N)n2)cc1OCc1ccc(Cl)cc1", "method": "MTT", "value": "335 µM"}
{"SMILES": "Cc1cc(O)c2c(c1Cl)C(=O)C=CC2=O", "method": "XTT", "value": "7.6 µg/mL"}
{"SMILES": "CN1Cc2c(ccc3c2OCO3)-c2ccc3cc4c(cc3c21)OCO4", "method": "sulforhodamine", "value": ">3.33 µg/mL"}
{"SMILES": "CC(Cc1ccccc1)N(C)Cc1ccc(-c2ccc(Cl)cc2)o1", "value": "23.35 µg/mL"}
{"SMILES": "O=C(NC[C@@H]1OC(=O)N2c3cc(F)c(C4=CCN(C(=O)CO)CC4)cc3OC[C@@H]12)C1CC1", "method": "resazurin", "value": ">64 µg/mL"}
{"SMILES": "COC(=O)N[C@H](C(=O)N1CCC[C@H]1c1nc2ccc(-c3csc4c(-c5ccc(-c6cnc([C@@H]7CCCN7C(=O)[C@H](NC(=O)OC)c7ccccc7)[nH]6)cc5)csc34)cc2[nH]1)C(C)C", "method": "resazurin", "value": ">50 µM"}
{"SMILES": "Cc1c2ccncc2c(C)c2c1[nH]c1ccccc12", "method": "sulforhodamine", "value": "0.093 µg/mL"}
{"SMILES": "Cc1ccc(C)c(NC2=CC(=O)C(=O)c3ccccc32)c1", "value": ">10 µg/mL"}
{"SMILES": "CC(C)(C)OC(=O)N1[C@H]2CC[C@@H]1C(n1cnc3c(N)ncnc31)C2", "method": "MTS", "value": ">151 µM"}
{"SMILES": "CC[C@H](/C=C/[C@@H](C)[C@H]1CC[C@H]2[C@@H]3CC(=O)[C@@]4(O)C[C@@H](O)CC[C@]4(C)[C@H]3CC[C@]12C)C(C)C", "method": "MTT", "value": "901 µM"}
{"SMILES": "FC(F)(F)c1ccc(Nc2nc(-c3ccccn3)cs2)cc1", "method": "luminescence", "value": "5 µM"}
{"SMILES": "O=C(N=Nc1c(Cl)c(O)c2ccccc2c1O)c1ccccc1O", "value": "1.24 µg/mL"}
{"SMILES": "COc1ccc(CC(=O)NC2N=C(c3ccccc3)c3ccccc3NC2=O)cc1", "value": "1.5 µM"}
{"SMILES": "O=C(NC[C@@H]1OC(=O)N2c3cc(F)c(C4=CCN(CCO)CC4)cc3OC[C@@H]12)C1CCC1", "method": "resazurin", "value": ">64 µg/mL"}
{"SMILES": "O=C1C(c2ccc(O)c3[nH]ccc23)=Nc2ccccc21", "method": "MTS", "value": "4.6 µg/mL"}
{"SMILES": "CCCCCC(=O)N1[C@H]2CC[C@@H]1C(n1cnc3c(Cl)ncnc31)C2", "method": "MTS", "value": "104 µM"}
{"SMILES": "O=C(NC[C@@H]1OC(=O)N2c3cc(F)c(C4=CCN(CCO)CC4)cc3OC[C@@H]12)C1CC1", "method": "resazurin", "value": ">64 µg/mL"}
{"SMILES": "O=C([O-])C(F)(F)F.O=C([O-])C(F)(F)F.c1nc([NH2+]C2CC2)c2ncn(C3C[C@@H]4CC[C@H]3[NH2+]4)c2n1", "method": "MTS", "value": ">100 µM"}
{"SMILES": "NC1=NCN([C@@H]2O[C@H](CO)[C@@H](O)[C@H]2O)C(=O)N1", "method": "neutral red", "value": "9.8 µg/mL"}
{"SMILES": "CCn1cc(C(=O)O)c(=O)c2cc([N+](=O)[O-])c3cccnc3c21", "method": "luminescence", "value": ">100 µg/mL"}
{"SMILES": "NC(=O)c1[nH]nc([C@@H]2O[C@H](CO)[C@@H](O)[C@H]2O)c1O", "method": "neutral red", "value": "33 µg/mL"}
{"SMILES": "COc1ccc(-c2nc3ccccc3n2-c2ccc(Br)cc2)cc1", "method": "MTT / absorbance", "value": "1000 µM"}
{"SMILES": "Nc1ncnc2c1ncn2CCOCP(=O)(O)O", "method": "MTT / absorbance", "value": "30 µM"}
{"SMILES": "O=Nc1c(-c2ccccc2)nc2ccccn12", "value": "3.5 µg/mL"}
{"SMILES": "C#Cc1c(C(N)=O)ncn1[C@@H]1O[C@H](CO)[C@@H](O)[C@H]1O", "method": "MTT / neutral red", "value": "4.1 µg/mL"}
{"SMILES": "COc1ccc2c(C)cc(N/N=C(/c3ccccc3)c3ccccn3)nc2c1", "value": "0.82 µg/mL"}
{"SMILES": "CC(C)(C)OC(=O)N1C[C@H]2C[C@@H]1CC2n1cnc2c(N)ncnc21", "method": "MTS", "value": ">151 µM"}
{"SMILES": "Cn1cc(C(=O)O)c(=O)c2cc([N+](=O)[O-])c3cccnc3c21", "method": "luminescence", "value": ">100 µg/mL"}
{"SMILES": "COc1ccc(C(=O)NC2N=C(c3ccccc3)c3ccccc3NC2=O)cc1", "value": "1.5 µM"}
{"SMILES": "CC[C@H]1OC(=O)[C@H](C)[C@@H](O[C@H]2C[C@@](C)(OC)[C@@H](O)[C@H](C)O2)[C@H](C)[C@@H](O[C@@H]2O[C@H](C)C[C@H](N(C)C)[C@H]2O)[C@](C)(OC)C[C@@H](C)C(=O)[C@H](C)[C@@H](O)[C@]1(C)O", "method": "XTT", "value": ">300 µg/mL"}
{"SMILES": "CC[C@H](/C=C/[C@@H](C)[C@H]1CC[C@H]2[C@@H]3CC(=O)[C@@]4(O)C[C@@H](Br)CC[C@]4(C)[C@H]3CC[C@]12C)C(C)C", "method": "MTT", "value": "139 µM"}
{"SMILES": "Cc1nc(-c2ccccc2)sc1-c1csc(-c2ccc(F)c(Cl)c2)n1", "method": "sulforhodamine", "value": ">80 µM"}
{"SMILES": "Nc1nc(N)nc(-c2ccc(OCc3ccc(Cl)cc3)cc2)n1", "method": "MTT", "value": "333 µM"}
{"SMILES": "CN1CCc2cc3c(cc2C(=O)Cc2ccc4c(c2C1)OCO4)OCO3", "method": "sulforhodamine", "value": ">3.5 µg/mL"}
{"SMILES": "O=C(NC1N=C(c2ccccc2)c2ccccc2NC1=O)c1cccc([N+](=O)[O-])c1", "value": "2 µM"}
{"SMILES": "CO[C@H]1/C=C/O[C@@]2(C)Oc3c(C)c(O)c4c(O)c(c(/C=N/N5CCN(C)CC5)c(O)c4c3C2=O)NC(=O)/C(C)=C\\C=C\\[C@H](C)[C@H](O)[C@@H](C)[C@@H](O)[C@@H](C)[C@H](OC(C)=O)[C@@H]1C", "method": "MTS / absorbance", "value": "121 µM"}
{"SMILES": "Nc1nc(-c2ccccn2)cs1", "method": "luminescence", "value": ">100 µM"}
{"SMILES": "CCN=c1cc2oc3cc(NCC)c(C)cc3c(-c3ccccc3C(=O)OCC)c-2cc1C", "value": "3.13 µg/mL"}
{"SMILES": "Clc1ncnc2c1ncn2C1C[C@@H]2CC[C@H]1[NH2+]2.O=C([O-])C(F)(F)F", "method": "MTS", "value": "55 µM"}
{"SMILES": "O=[N+]([O-])c1cc2cccc([N+](=O)[O-])c2o1", "value": "0.5 µg/mL"}
{"SMILES": "O=C1Nc2ccccc2C(c2ccccc2)=NC1NCc1cccc([N+](=O)[O-])c1", "value": "30 µM"}
{"SMILES": "Cc1c2ccncc2cc2c1sc1ccncc12", "value": ">10 µg/mL"}
{"SMILES": "Nc1nc(N)nc(-c2ccc(OCc3ccccc3Cl)cc2)n1", "method": "MTT", "value": "387 µM"}
{"SMILES": "Cc1c2c(c(C)c3c4c(oc13)CCCC4)C=NCC2", "value": "3.83 µg/mL"}
{"SMILES": "Nc1nc(N)nc(-c2ccc(OCc3cccc(Cl)c3)cc2)n1", "method": "MTT", "value": "387 µM"}

Repeating the first 6 entries:

SMILES	method	value
Cc1nc(-c2ccccc2)sc1-c1csc(-c2ccc(Br)cc2)n1	sulforhodamine	>80 µM
CC(=O)c1csc(NC(=O)C2C3CC4CC(C3)CC2C4)n1	luminescence	82 µM
O=C(NC[C@@H]1OC(=O)N2c3cc(F)c(C4=CCN(C(=O)CO)CC4)cc3OC[C@@H]12)C1CCC1	resazurin	>64 µg/mL
Nc1nc(N)nc(-c2ccc(OCc3ccccc3)cc2)n1	MTT	464 µM
CC[C@@H](C(C)C)[C@H](O)[C@@H](O)[C@@H](C)[C@H]1CC[C@H]2[C@@H]3CC(=O)[C@@]4(O)C[C@H](O)[C@H](O)C[C@]4(C)[C@H]3CC[C@]12C	MTT	364 µM
O=C(Nc1ccn(-c2ccccn2)n1)NC1CCCC1	luminescence	>100 µM

Conditions beyond the fields shown may differ between rows.